Source: patent US20210015884A1 (priority 2018, published 2021)

Key:
[1] = test system: m^6A methylation in viral RNA; experiment: m6A methylation in viral RNA from MDCK cells treated with oligos; type: cell-based, influenza A virus; settings: MDCK cells pre-treated with oligo, after selection with Zanamivir; FIG. 8
[2] = test system: m^6A levels in MDCK cells; experiment: m6A levels in MDCK cells transfected with oligonucleotides; settings: 100 nM oligo, 72 hrs after transfection

With “5′ GG/i2FA/CUGG/i2FA/CUGG/i2FA/CUGG/i2FA/CU 3′” as the substance, how does the “m^6A methylation in corresponding viral RNA” value [1] read?
Its value is “concomitant decrease”.

What about the “inhibition of m^6A levels” value [2] of the same substance?
Its value is 80%.
